Measured values from several laboratories, pooled; numbers as filed in NIAID ChemDB.

All rows: cytotoxicity tests; cell line: MT-4; endpoint: CC50

Rows are shuffled and stem from different studies. CCn is the concentration with n% toxicity to the cells.

| compound | method | value |
|---|---|---|
| CCCCCc1nc2n(n1)C(c1ccc([N+](=O)[O-])cc1)CC(=O)N2 | visual reading | >100 µg/mL |
| CN1CCn2c(nc(C(=O)NCc3ccc(F)cc3)c(O)c2=O)C(N(C)C(=O)C(=O)N2CCCC2)C1 | microscopy | >1 µM |
| Cn1c(COc2ccc(Cl)c(Oc3cc(Cl)cc(C#N)c3)c2)nc2ccccc21 | microscopy | >20 µM |
| C[C@H]1CC[C@@]2(CNC(=O)O2)[C@H]2CN1C(=O)c1c(O)c(=O)c(C(=O)NCc3c(F)cc(F)cc3F)cn12 | luminescence | 50 µM |
| NS(=O)(=O)c1ccc(NC(=O)CNc2cccc(Oc3ccccc3)c2)c(Cl)c1 | microscopy | >20 µM |
| COc1ccc(C2CC(=O)Nc3nc(-c4ccc5ccccc5c4)nn32)cc1 | visual reading | >100 µg/mL |
| Cc1cc(OCCN(C)C)ccc1NC(=O)COc1ccc(Cl)c(Oc2cc(Cl)cc(C#N)c2)c1 | microscopy | >20 µM |
| CN(C)C(=O)C(=O)N1CCn2c(nc(C(=O)NCc3ccc(F)cc3)c(O)c2=O)C1 | microscopy | >1 µM |
| CCOC(=O)c1[nH]c2ccc(Cl)cc2c1S(=O)(=O)C1CCCC1 | microscopy | >10 µM |
| N#Cc1cc(Cl)cc(Oc2cc(OCc3[nH]nc4ncccc34)ccc2Cl)c1 | microscopy | >20 µM |
| C[C@H]1CC[C@]2(CC(=O)N(CC3CCOCC3)O2)[C@H]2CN1C(=O)c1c(O)c(=O)c(C(=O)NCc3c(F)cc(F)cc3F)cn12 | luminescence | 32.18 µM |
| CCOC(=O)c1[nH]c2ccc(Cl)cc2c1S(=O)(=O)CC1CCCCC1 | microscopy | >10 µM |
| CC(=O)N(C)C1CN(C)CCn2c1nc(C(=O)NCc1ccc(F)cc1)c(O)c2=O | microscopy | >1 µM |
| NC(=O)c1[nH]c2ccc(Cl)cc2c1S(=O)(=O)CCC1CC1 | microscopy | >10 µM |
| Cc1ccc(CNC(=O)c2nc3n(c(=O)c2O)CCN(C2CC2)CC3N(C)C(=O)C(=O)N(C)C)cc1Cl | microscopy | >1 µM |
| NS(=O)(=O)c1ccc(NC(=O)COc2cc(Cl)cc(Oc3ccccc3)c2)c(Cl)c1 | microscopy | >20 µM |
| CC1=C(C)CC(COCP(=O)(O)O)(n2ccc(N)nc2=O)C1 | XTT | >100 µM |
| C[C@H]1CC[C@]2(CC(=O)N(Cc3nc4ccccc4[nH]3)O2)[C@H]2CN1C(=O)c1c(O)c(=O)c(C(=O)NCc3c(F)cc(F)cc3F)cn12 | luminescence | 50 µM |
| CC1=C(C)CC(COCP(=O)(OCCSC(=O)C(C)(C)C)OCCSC(=O)C(C)(C)C)(n2ccc(N)nc2=O)C1 | XTT | 44 µM |
| N#Cc1cc(Cl)cc(Oc2cc(OCc3[nH]nc4nc(N5CCC5)ccc34)ccc2Cl)c1 | microscopy | >20 µM |
| NC(=O)c1[nH]c2ccc(Cl)cc2c1S(=O)(=O)C1C=CCCC1 | microscopy | >10 µM |
| C[C@H]1CC[C@]2(CC(=O)NO2)[C@H]2CN1C(=O)c1c(O)c(=O)c(C(=O)NCc3ccc(F)cc3F)cn12 | luminescence | 50 µM |
| CC1(C)c2nc(C(=O)NCc3ccc(F)cc3)c(O)c(=O)n2CCN1Cc1ccccn1 | microscopy | >1 µM |
| CC1=NO[C@]2(CC[C@H](C)N3C[C@H]2n2cc(C(=O)NCc4ccc(F)cc4F)c(=O)c(O)c2C3=O)C1 | luminescence | 50 µM |
| CCOC(=O)c1[nH]c2ccc(Cl)cc2c1SCC1CCCCC1 | microscopy | >10 µM |
| O=C1CC(c2ccccc2)n2nc(C3CCCCC3)nc2N1 | visual reading | ≥100 µg/mL |
| NC(=O)c1[nH]c2ccc(Cl)cc2c1S(=O)(=O)C1CCCCC1 | microscopy | >10 µM |
| CC(=O)N1CCn2c(nc(C(=O)NCc3ccc(F)cc3)c(O)c2=O)C1C | microscopy | >1 µM |
| C[C@H]1CC[C@]2(CC(=O)N(Cc3ccc4c(cnn4C)c3)O2)[C@H]2CN1C(=O)c1c(O)c(=O)c(C(=O)NCc3c(F)cc(F)cc3F)cn12 | luminescence | 50 µM |
| CC1NCCn2c1nc(C(=O)NCc1ccc(F)cc1)c(O)c2=O | microscopy | >1 µM |
| N#Cc1cc(Cl)cc(Oc2cc(Cl)cc(OCC(=O)Nc3ccc4nc[nH]c4c3)c2)c1 | microscopy | >20 µM |
| C[C@H]1CC[C@]2(CC(=O)N(Cc3ccc4ccccc4c3)O2)[C@H]2CN1C(=O)c1c(O)c(=O)c(C(=O)NCc3c(F)cc(F)cc3F)cn12 | luminescence | 50 µM |
| CN(C)C(=O)C(=O)N1CCc2nc(C(=O)NCc3ccc(F)cc3)c(O)c(=O)n2CC1 | microscopy | >1 µM |
| CCCCCc1nc2n(n1)C(c1ccccc1)CC(=O)N2 | visual reading | >100 µg/mL |
| CN(C)CC(=O)N1CCn2c(nc(C(=O)NCc3ccc(F)cc3)c(O)c2=O)C1(C)C | microscopy | >1 µM |
| NS(=O)(=O)c1ccc(NC(=O)COc2cccc(Oc3ccccc3)c2)c(Cl)c1 | microscopy | >20 µM |

A second listing of 3 rows from above:

compound | method | value
NS(=O)(=O)c1ccc(NC(=O)COc2cc(Cl)cc(Oc3ccccc3)c2)c(Cl)c1 | microscopy | >20 µM
CCOC(=O)c1[nH]c2ccc(Cl)cc2c1S(=O)(=O)CC1CCCCC1 | microscopy | >10 µM
CC(=O)N(C)C1CN(C)CCn2c1nc(C(=O)NCc1ccc(F)cc1)c(O)c2=O | microscopy | >1 µM